Compound potency records, mixed from different reports. Data source: NIAID ChemDB in PubChem.

Shared fields: growth or infection tests; organism: Mycobacterium tuberculosis

MIC bound: limit read from a one-dose screen. Inhibition is in % at the dose shown (toxicity tests: loss of growth or viability). MIC50, MIC90 and the like: level of inhibition, or share of isolates inhibited. An empty or dashed field is not shown. Neighbouring rows are from separate reports. Two numbers with a dash give a range or band. ECn: concentration that inhibits the pathogen or its effect by n%.

smiles	dose	cell line	changes	strain or isolate	endpoint	setting	read by	result
O=C(/C=C\C(=O)Nc1cccc(C2=NCCN2)c1)Nc1cccc(C2=NCCN2)c1				H37Rv	MIC bound		resazurin	>6.25 µg/mL
CCCCCCCCCN1C(=O)CC(C)(SCCO)C1=O				Clinical isolate (isoniazid-resistant)	MIC			≤20 µg/mL
CCSCCCCCCCCCCCC(=O)O	12.5 µg/mL			H37Rv	inhibition		BACTEC	33%
NC[C@@H]1O[C@H](O[C@H]2[C@@H](O)[C@H](O[C@@H]3[C@@H](O)[C@H](N)C[C@H](N)[C@H]3O[C@H]3O[C@H](CO)[C@@H](O)C[C@H]3N)O[C@@H]2CO)[C@H](N)[C@@H](O)[C@@H]1O[C@H]1O[C@H](CO)[C@@H](O)[C@H](O)[C@@H]1O				H37Rv (capreomycin-resistant)	EC50			≥50 µg/mL
O=C(NN(C(=O)c1ccccc1)c1ccccc1)c1ccccc1					MIC			>200 µg/mL
CCCCCCCCCN1C(=O)CC(NCCN(CCCC)CCCC)C1=O				H37Ra	MIC			≤20 µg/mL
O=C(/C=C/c1ccccc1)c1cc(Br)ccc1O	12.5 µg/mL				inhibition			68%
C[C@H]1S[C@@H](c2ccc(Cl)cc2Cl)N(NC(=O)c2ccncc2)C1=O	0.5 µM				inhibition		BACTEC	0%
COc1ccc2cc1-c1cc(ccc1O)C[C@@H]1NCCc3cc4c(cc31)Oc1c(c(OC)cc3c1[C@H](C2)N(C)CC3)O4				H37Rv	MIC		resazurin	3.1 µg/mL
O=C1C=C2C(=NC34CCCCC3C(c3ccccc3)C3=C(c5ccccc5CC3)N24)c2ccccc21				H37Rv	MIC		resazurin	>12.5 µg/mL
O=C(O)c1cn(C2CC2)c2cc(N3CCN(C(=O)C4COc5ccccc5O4)CC3)c(F)cc2c1=O				ATCC35801	MIC			3.17 µM
CCOC(=O)Nc1cc(N(CCc2ccccc2)Cc2ccccc2)c2nc(C)oc2c1	12.5 µg/mL			H37Rv	inhibition			77%
O=C(Oc1cc(Cl)ccc1C(=O)Nc1ccc(C(F)(F)F)cc1)c1cnccn1				H37Rv 331/88	MIC	21 d		1 µM
CC(C)c1ccc2c(c1)CC[C@H]1[C@](C)(CNCCNCc3ccccc3Sc3ccccc3CO)CCC[C@]21C					MIC			50 µM
O=C(Oc1ccc(Cl)cc1C(=O)Nc1ccc(C(F)(F)F)cc1)c1cnccn1				multidrug resistant 234/2005	MIC	14 d		0.25 µM
N/C(=N/O)c1cncc(-n2cncn2)n1				Isoniazid-resistant	MIC			500 µg/mL
CO[C@H]1/C=C/O[C@@]2(C)Oc3c(C)c(O)c4c(O)c(c(/C=N/N5CCN(C6CCCC6)CC5)c(O)c4c3C2=O)NC(=O)/C(C)=C\C=C\[C@H](C)[C@H](O)[C@@H](C)[C@@H](O)[C@@H](C)[C@H](O)[C@@H]1C				H37Rv	MIC			0.03 µg/mL
CCCCCCCCCN1C(=O)CC(NCCCCCCC)C1=O				H37Rv	MIC			≤20 µg/mL
COc1cncc(C2CCN(C(=O)CCC(F)(F)F)CC2)c1		THP-1		H37Rv	EC50		fluorescence	0.05–0.25 µM
COc1cc(/C=C2\N=C(C)OC2=O)cc(Cl)c1OC				H37Rv	MIC bound		BACTEC	>12.5 µg/mL
CC/C(=C(\c1ccccc1)c1ccc(OCCN(C)C)cc1)c1ccccc1				Strep-r	MIC		resazurin	6.25–12.5 µg/mL
CCOC(=O)Nc1cc2c([nH]c(=S)n2/N=C/c2ccccc2)c(N)n1	12.5 µg/mL			H37Rv	inhibition			29%
O=C(CN1C(=O)CCC1=O)Nc1ccc(N2CCCCC2)cc1				H37Ra	MIC			≤20 µg/mL
O=C(CCC(F)(F)F)N1CCC(F)(c2ccnc(C(F)(F)F)c2)CC1		THP-1		H37Rv	EC50		fluorescence	<0.05 µM
CCOC(=O)Nc1cc(N)c([N+](=O)[O-])c(NC(c2ccccc2)c2ccccc2)n1				H37Rv	EC50			>12.5 µg/mL
CCOCCCNCCNCC(c1ccccc1)c1ccccc1					MIC			50 µM
N#Cc1cncc(-n2cncn2)n1				Capreomycin-resistant	MIC			250 µg/mL
c1ccc(N=c2ncc3nc(-c4ccccc4)c(-c4ccccc4)n(-c4ccccc4)c-3n2)cc1				H37Rv	MIC		BACTEC	≥12.5 µg/mL
CC(C)(C)n1cc(C(=O)O)c(=O)c2cc(F)c(N3CCSCC3)cc21				ATCC35801	MIC			8.59 µM
CCOc1ccc(C(=O)N/N=C/c2ccccc2)cc1					MIC			200 µg/mL
Cc1nn(C(=S)S)c(C)c1N=Nc1ccccc1Cl				H37Rv	MIC		resazurin	1.56 µg/mL
COc1ccc2cc1-c1cc(ccc1O)C[C@H]1c3cc4c(cc3CCN1C)Oc1c(OC)cc3c(c1O4)[C@H](C2)N(C)CC3				H37Rv-PAS-R ATCC 35821	MIC		resazurin	3.1 µg/mL
CC(=O)Nc1cc(OCC(=O)O)ccc1S(=O)(=O)c1ccc(OCC(=O)O)cc1NC(C)=O	12.5 µg/mL			H37Rv	inhibition		BACTEC	-12%
N[C@@H]1CN(c2c(F)cc3c(=O)c(C(=O)O)cn([C@@H]4C[C@@H]4F)c3c2Cl)CC12CC2			Gyrase Asp94Ala	Clinical strain	MIC		resazurin	0.0625–0.25 µg/mL
COc1ccc(C2Oc3ccc(C(=O)O)cc3C(=O)C2O)cc1	12.5 µg/mL			H37Rv	inhibition			0%
CCCCCCCCNC1CC(=O)NC1=O				H37Ra	MIC			≤20 µg/mL
NC(=O)c1cncc(-n2ccnc2)n1				SP 607	MIC			1000 µg/mL
O=C(Oc1ccc(Cl)cc1C(=O)Nc1ccc(Cl)c(Cl)c1)c1cnccn1				H37Rv 331/88	MIC	14 d		1 µM
CCOC(=O)Nc1cc2c(cn1)N=C(CN(C)c1ccc(OC)cc1)CN2				H37Rv	EC50			>12.5 µg/mL
O=C(O)c1ccc(O)c(C(=O)/C=C/c2cccc(I)c2)c1				H37Rv	EC50			>12.5 µg/mL
CC(=O)NC[C@H]1CN(c2ccc(N3CCN(Cc4ccc([N+](=O)[O-])s4)CC3)c(F)c2)C(=O)O1				16 isolates (MDR)	Geometric mean MIC			0.117 µg/mL
CCOC(=O)c1nc2cc(F)c(F)cc2nc1NCc1cc(OC)c(OC)c(OC)c1	6.25 µg/mL			H37Rv	inhibition		BACTEC	19%
O=C(Oc1ccc(Br)cc1C(=O)Nc1ccc(C(F)(F)F)cc1)c1cnccn1				H37Rv 331/88	MIC	14 d		0.5 µM
CC(=O)c1cc([N+](=O)[O-])c(N2CC(C)CC(C)C2)s1				H37Rv	MIC		resazurin	100 µg/mL
CCOC(=O)N1N=C(c2ccccc2)OC2(N3CCCC3)CCC(C(C)(C)C)CC12				H37Rv	MIC bound		BACTEC	>12.5 µg/mL
CO[C@H]1/C=C/O[C@@]2(C)Oc3c(C)c(O)c4c(O)c(c(/C=N/N5CCN(C6CCCC6)CC5)c(O)c4c3C2=O)NC(=O)/C(C)=C\C=C\[C@H](C)[C@H](O)[C@@H](C)[C@@H](O)[C@@H](C)[C@H](OC(C)=O)[C@@H]1C				Isolate 900216 drug-susceptible	MIC			0.063 µg/mL
O=[N+]([O-])c1cn2c(n1)OC[C@H](OCc1ccc(OC(F)(F)F)cc1)C2				H37Rv	MIC		resazurin	0.078 µg/mL
CCCCC(CC)CN1CN(CC(CC)CCCC)CC(C)(NCCNCc2ccc(C(F)(F)F)cc2)C1					MIC			50 µM
O=C(CCC(F)(F)F)N1CCC(c2ccnc(C(F)(F)F)c2)CC1		THP-1		H37Rv	EC50		fluorescence	<0.05 µM
CCCCCCCCCN1C(=O)CC(SCCNC(=O)c2ccc([N+](=O)[O-])cc2)C1=O				Clinical isolate (isoniazid-resistant)	MIC			≤20 µg/mL
CCCCCCc1ccc(Oc2ccccc2)c(O)c1				NHN20	MIC99			3.1 µg/mL
COc1cc(OC)c2c(c1)OC(c1ccc(OC)c(I)c1)CC2=O				H37Rv	EC50			>12.5 µg/mL
Clc1ccccc1CCNCCNCCCCc1ccccc1					MIC			25 µM
O=C1c2ccccc2OC(c2ccccc2)C1I					EC50			>12.5 µg/mL
O=C1NC(SC(SC2=NNC3(C(=O)N2)c2ccccc2-c2ccccc23)=C(SC2=NNC3(C(=O)N2)c2ccccc2-c2ccccc23)SC2=NNC3(C(=O)N2)c2ccccc2-c2ccccc23)=NNC12c1ccccc1-c1ccccc12	12.5 µg/mL			H37Rv	inhibition		BACTEC	88%
S=C(NCN1CCOCC1)c1cncc(-n2ccnc2)n1				Ethionamide-resistant	MIC			500 µg/mL
C/C(=N\Nc1cc(C)c2cc(C)ccc2n1)c1ccccn1	12.5 µg/mL			H37Rv	inhibition		BACTEC	97%
CC1CCN(c2sc([N+](=O)[O-])cc2[N+](=O)[O-])CC1				H37Rv	MIC		resazurin	6.25 µg/mL
CN(C)CCn1nc2n(c(=O)c1=O)CC(=O)N(C)c1ccc(Cl)cc1-2				H37Rv	MIC bound		resazurin	>6.25 µg/mL
NC(=O)c1cnccn1	800 µg/mL			Erdman	inhibition	7 d		96.5%
CCOC(=O)Nc1cc2c(c(N)n1)N=C(c1ccc(OC)cc1)CN2				H37Rv	MIC bound		resazurin	>6.25 µg/mL
C=C1CC(=O)N(CCCCCCCCC)C1=O				H37Rv	MIC			≤20 µg/mL
CC1CCCCN1c1cncc(C(N)=O)n1				Ethionamide-resistant	MIC			500 µg/mL
CC(NCCNCCc1ccccc1)C12CC3CC(CC(C3)C1)C2					MIC			50 µM
NNC(=O)CCCCC(=O)NN					MIC			200 µg/mL
CCOC(=O)Nc1cc(N[C@@H](C)[C@H](O)c2ccccc2)c(N)c(N)n1	12.5 µg/mL	VERO		H37Rv	inhibition			99%
COC1=CC(=O)C=C(OC)C1=O				H37Rv	MIC bound		BACTEC	>128 µg/mL
CCCCCCCCCN1C(=O)CC(SCCNC(=O)C(CC)CCCC)C1=O				H37Rv	MIC			≤20 µg/mL
c1ccc(CCCNCCNCC(c2ccccc2)c2ccccc2)cc1					MIC			37.5 µM
NC(=O)c1cnccn1				H37Rv 331/88	MIC	21 d		>1000 µM
COc1ccc(/C=C/C(=O)c2cc(C(=O)O)ccc2O)cc1	12.5 µg/mL			H37Rv	inhibition			0%
O=C(N/N=C/c1ccc(Cl)cc1)c1ccccc1Cl					MIC			100 µg/mL
Cc1cc(C(=O)NN)c(C#N)c(=O)[nH]1	6.25 µg/mL			H37Rv	inhibition		resazurin	4%
O=C(CCC(F)(F)F)N1CCC(c2cccc(F)n2)CC1		THP-1		H37Rv	EC50		fluorescence	0.05–0.25 µM
CCN(CC)C(=O)C1CCCN(c2cc3c(cc2[N+](=O)[O-])c(=O)c(C(=O)O)cn3-c2ccc(F)cc2F)C1				ATCC35801	MIC			1.56 µM
O=C(CNC(=O)c1ccccc1)N/N=C/c1ccccc1					MIC			>200 µg/mL
O=C1C(=O)c2cccnc2-c2ncccc21		VERO		H37Rv	MIC		BACTEC	1.6 µg/mL
CCCCCCCCc1ccc(Oc2ccccc2)c(O)c1				NHN382	MIC99			2.6 µg/mL
CC(C)(C)CC(C)(C)NCCNCC(c1ccccc1)c1ccccc1					MIC			18.8 µM
CCO/C=N/NC(=O)c1n[nH]c2ccccc12				H37Rv	MIC bound		BACTEC	>12.5 µg/mL
CCCCCCCCCN1C(=O)CC(SCCNC(=O)c2ccc(C(C)(C)C)cc2)C1=O				Clinical isolate (isoniazid-resistant)	MIC			≤20 µg/mL
O=C(CCC(F)(F)F)N1CCC(c2ccc(F)nc2)CC1		THP-1		H37Rv	EC50		fluorescence	0.05–0.25 µM
CCOC(=O)Nc1cc(NCc2ccc(S(N)(=O)=O)cc2)c([N+](=O)[O-])c(N)n1				H37Rv	EC50			>12.5 µg/mL
CCOC(=O)c1nnc(-c2ccccc2)c(-c2ccccc2)n1				H37Rv	MIC bound		BACTEC	>12.5 µg/mL
O=C(O)c1cn(C2CC2)c2cc(N3CCSCC3)c(F)cc2c1=O				ATCC35801	MIC			8.98 µM
COC(=O)c1cnccn1				331/88	MIC	21 d		>500 µM
COC(=O)Nc1c2c(nc3ccccc13)-c1ccccc1C(C)(C)C2OC	12.5 µg/mL			H37Rv	inhibition		BACTEC	-7%
CC1CC(C)CN(c2ccc([N+](=O)[O-])s2)C1				H37Rv	MIC		resazurin	3.125 µg/mL

For reference, 13 entries again:

smiles | dose | cell line | changes | strain or isolate | endpoint | setting | read by | result
O=C(CCC(F)(F)F)N1CCC(F)(c2ccnc(C(F)(F)F)c2)CC1 |  | THP-1 |  | H37Rv | EC50 |  | fluorescence | <0.05 µM
CC1CCCCN1c1cncc(C(N)=O)n1 |  |  |  | Ethionamide-resistant | MIC |  |  | 500 µg/mL
CC/C(=C(\c1ccccc1)c1ccc(OCCN(C)C)cc1)c1ccccc1 |  |  |  | Strep-r | MIC |  | resazurin | 6.25–12.5 µg/mL
NC(=O)c1cncc(-n2ccnc2)n1 |  |  |  | SP 607 | MIC |  |  | 1000 µg/mL
COc1ccc(/C=C/C(=O)c2cc(C(=O)O)ccc2O)cc1 | 12.5 µg/mL |  |  | H37Rv | inhibition |  |  | 0%
O=[N+]([O-])c1cn2c(n1)OC[C@H](OCc1ccc(OC(F)(F)F)cc1)C2 |  |  |  | H37Rv | MIC |  | resazurin | 0.078 µg/mL
CCCCCCCCNC1CC(=O)NC1=O |  |  |  | H37Ra | MIC |  |  | ≤20 µg/mL
O=C(CN1C(=O)CCC1=O)Nc1ccc(N2CCCCC2)cc1 |  |  |  | H37Ra | MIC |  |  | ≤20 µg/mL
CC(=O)NC[C@H]1CN(c2ccc(N3CCN(Cc4ccc([N+](=O)[O-])s4)CC3)c(F)c2)C(=O)O1 |  |  |  | 16 isolates (MDR) | Geometric mean MIC |  |  | 0.117 µg/mL
Cc1nn(C(=S)S)c(C)c1N=Nc1ccccc1Cl |  |  |  | H37Rv | MIC |  | resazurin | 1.56 µg/mL
O=C1C(=O)c2cccnc2-c2ncccc21 |  | VERO |  | H37Rv | MIC |  | BACTEC | 1.6 µg/mL
CCCCCCCCc1ccc(Oc2ccccc2)c(O)c1 |  |  |  | NHN382 | MIC99 |  |  | 2.6 µg/mL
CC(C)(C)n1cc(C(=O)O)c(=O)c2cc(F)c(N3CCSCC3)cc21 |  |  |  | ATCC35801 | MIC |  |  | 8.59 µM